{
  "sequences": {"note": "Chains of the proteins cited; added tags and fusions are not shown.", "UniProt Q99685, whole entry": "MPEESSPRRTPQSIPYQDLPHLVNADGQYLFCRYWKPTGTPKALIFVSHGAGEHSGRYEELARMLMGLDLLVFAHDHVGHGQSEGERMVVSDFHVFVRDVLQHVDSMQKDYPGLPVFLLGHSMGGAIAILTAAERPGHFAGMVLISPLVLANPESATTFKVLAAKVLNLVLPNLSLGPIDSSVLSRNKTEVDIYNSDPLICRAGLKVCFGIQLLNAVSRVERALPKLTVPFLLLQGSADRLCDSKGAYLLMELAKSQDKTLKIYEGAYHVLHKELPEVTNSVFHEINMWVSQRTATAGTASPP"},
  "source": "paper PMC4065498",
  "about": "(Chemical research in toxicology, 2010)",
  "key": {"recombinant human MAGL": {"target": "recombinant human MAGL (Homo sapiens, UniProt Q99685)", "assay": "biochemical"}, "recombinant human CES1": {"target": "T1, recombinant human CES1 (Homo sapiens, UniProt P23141)", "T1 sequence (P23141 18-567)": "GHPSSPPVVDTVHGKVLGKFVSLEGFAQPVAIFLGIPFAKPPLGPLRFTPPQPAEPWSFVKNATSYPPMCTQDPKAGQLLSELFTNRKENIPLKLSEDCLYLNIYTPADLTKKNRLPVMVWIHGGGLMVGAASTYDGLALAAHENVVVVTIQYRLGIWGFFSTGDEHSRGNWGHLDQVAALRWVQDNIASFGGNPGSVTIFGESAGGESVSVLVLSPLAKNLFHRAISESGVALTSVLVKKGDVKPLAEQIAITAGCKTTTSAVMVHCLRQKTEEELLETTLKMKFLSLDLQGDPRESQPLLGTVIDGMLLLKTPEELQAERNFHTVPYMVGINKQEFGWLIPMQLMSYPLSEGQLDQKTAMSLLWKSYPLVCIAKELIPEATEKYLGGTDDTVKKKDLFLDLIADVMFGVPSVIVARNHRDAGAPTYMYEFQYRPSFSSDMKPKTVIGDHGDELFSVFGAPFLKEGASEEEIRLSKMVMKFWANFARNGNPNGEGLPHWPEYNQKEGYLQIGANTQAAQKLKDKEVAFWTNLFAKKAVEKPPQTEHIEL", "assay": "biochemical"}},
  "data": [
    {"compound": "CCOP(=O)(OCC)Oc1ccc([N+](=O)[O-])cc1", "note": "[PO, paraoxon]", "values": [
      {"measurement": "IC50", "setting": "recombinant human MAGL", "result": "> 10000", "unit": "nM"},
      {"measurement": "IC50", "setting": "recombinant human CES1", "result": 77, "unit": "nM"}
    ]}
  ]
}
